Tested on: SVV
Experiment: Co-immunoprecipitation of SVV with Fc chimera proteins, Western blot
Conditions: washes with NaCl from 125 mM up to 2M

B1: ANTXR1-Fc (protein)
chain: EDGGPACYGGFDLYFILDKSGSVLHHWNEIYYFVEQLAHKFISPQLRMSFIVFSTRGTTLMKLTEDREQIRQGLEELQKVLPGGDTYMHEGFERASEQIYYENRQGYRTASVIIALTDGELHEDLFFYSEREANRSRDLGAIVYCVGVKDFNETQLARIADSKDHVFPVNDGFQALQGIIHSILKKSCIEILAAEPSTICAGESFQVVVRGNGFRHARNVDRVLCSFKINDSVTLNEKPFSVEDTYLLCPAPILKEVGMKAALQVSMNDGLSFISSSVIITTTHCSDGS
modifications: left off: a dimerising Fc or GST
  intensity of viral protein bands with increasing salt concentration: did not change significantly

Reference: patent US12472218B2, “Seneca valley virus (SVV) cellular receptor targeted oncotherapy” (Memorial Sloan-Kettering Cancer Center, priority 2015, dated 2025)
